Assay [1] concerns the target A. californica AChBP (Aplysia californica, UniProt Q8WSF8). Nature of the assay: Radioligand assay, competition with [125I]-αBgt for A. californica AChBP. The settings on record: for IC50: inhibition of [125I]-αBgt binding, 95% CI in the row below; for nH (Hill slope): mean ± SEM, [125I]-αBgt binding.
In assay [2] the target is T. californica nAChR (Tetronarce californica, UniProt P02710+P02714+P02718). Nature of the assay: Radioligand assay, competition with [125I]-αBgt for T. californica electric organ membranes. Conditions: for IC50: inhibition of [125I]-αBgt binding, 95% CI in the row below; for nH (Hill slope): mean ± SEM.
Assay [3] deals with human α7 nAChR (Homo sapiens, UniProt P36544). Nature of the assay: Radioligand assay, competition with [125I]-αBgt for α7 nAChR in GH4C1 cells. Conditions: for IC50: inhibition of [125I]-αBgt binding, 95% CI in the row below; for nH (Hill slope): mean ± SEM, [125I]-αBgt binding.

Amino acid sequences for entries named in this document (tags omitted). A change or cut given only in a name is not applied to a line headed by its entry. Residues count along the entry.
UniProt Q8WSF8, 18-236 limits assumed: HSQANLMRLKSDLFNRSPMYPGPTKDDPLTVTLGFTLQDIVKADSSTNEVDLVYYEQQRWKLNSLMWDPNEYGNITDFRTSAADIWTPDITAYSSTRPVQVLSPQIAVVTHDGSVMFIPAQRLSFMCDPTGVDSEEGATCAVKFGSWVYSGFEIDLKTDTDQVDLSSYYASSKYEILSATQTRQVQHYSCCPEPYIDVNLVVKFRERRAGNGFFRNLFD
UniProt P02710: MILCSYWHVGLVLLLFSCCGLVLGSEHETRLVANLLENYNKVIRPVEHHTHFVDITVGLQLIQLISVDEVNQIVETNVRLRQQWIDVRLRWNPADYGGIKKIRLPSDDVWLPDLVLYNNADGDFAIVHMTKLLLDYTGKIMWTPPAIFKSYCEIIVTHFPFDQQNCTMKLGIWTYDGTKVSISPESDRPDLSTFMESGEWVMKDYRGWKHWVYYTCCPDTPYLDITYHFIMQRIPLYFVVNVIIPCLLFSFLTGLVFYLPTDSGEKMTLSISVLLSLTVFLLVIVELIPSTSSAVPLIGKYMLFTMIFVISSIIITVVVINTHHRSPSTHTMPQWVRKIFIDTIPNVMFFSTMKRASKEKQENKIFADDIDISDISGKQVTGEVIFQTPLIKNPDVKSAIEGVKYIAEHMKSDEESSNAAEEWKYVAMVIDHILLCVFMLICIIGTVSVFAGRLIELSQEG
UniProt P02714: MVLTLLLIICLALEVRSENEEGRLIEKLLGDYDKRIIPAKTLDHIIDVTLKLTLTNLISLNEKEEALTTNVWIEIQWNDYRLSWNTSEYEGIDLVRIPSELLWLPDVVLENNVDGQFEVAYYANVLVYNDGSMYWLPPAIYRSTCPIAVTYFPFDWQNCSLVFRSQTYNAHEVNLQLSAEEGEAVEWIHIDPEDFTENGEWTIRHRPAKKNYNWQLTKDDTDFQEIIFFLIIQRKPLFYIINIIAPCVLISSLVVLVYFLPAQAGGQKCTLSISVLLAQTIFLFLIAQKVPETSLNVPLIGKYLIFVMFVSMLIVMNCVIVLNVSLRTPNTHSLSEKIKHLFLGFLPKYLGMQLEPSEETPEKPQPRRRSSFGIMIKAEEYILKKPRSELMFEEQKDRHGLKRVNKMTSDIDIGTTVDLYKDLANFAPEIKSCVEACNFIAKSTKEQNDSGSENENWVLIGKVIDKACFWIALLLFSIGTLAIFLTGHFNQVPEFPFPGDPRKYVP
UniProt P02718: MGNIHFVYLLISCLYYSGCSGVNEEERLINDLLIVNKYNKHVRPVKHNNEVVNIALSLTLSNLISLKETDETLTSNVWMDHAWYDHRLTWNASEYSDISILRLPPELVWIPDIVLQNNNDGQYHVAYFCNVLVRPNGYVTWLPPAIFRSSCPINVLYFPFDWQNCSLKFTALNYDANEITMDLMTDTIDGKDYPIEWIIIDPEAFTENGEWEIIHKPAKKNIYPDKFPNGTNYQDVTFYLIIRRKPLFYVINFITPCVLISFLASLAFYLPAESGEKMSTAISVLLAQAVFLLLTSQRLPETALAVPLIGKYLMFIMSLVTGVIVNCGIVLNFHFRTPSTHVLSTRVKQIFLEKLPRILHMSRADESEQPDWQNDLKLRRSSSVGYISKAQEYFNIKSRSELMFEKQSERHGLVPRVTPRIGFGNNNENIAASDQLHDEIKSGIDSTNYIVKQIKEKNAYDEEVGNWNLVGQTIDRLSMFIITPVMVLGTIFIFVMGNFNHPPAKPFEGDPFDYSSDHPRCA
UniProt P36544, 23-502 limits assumed: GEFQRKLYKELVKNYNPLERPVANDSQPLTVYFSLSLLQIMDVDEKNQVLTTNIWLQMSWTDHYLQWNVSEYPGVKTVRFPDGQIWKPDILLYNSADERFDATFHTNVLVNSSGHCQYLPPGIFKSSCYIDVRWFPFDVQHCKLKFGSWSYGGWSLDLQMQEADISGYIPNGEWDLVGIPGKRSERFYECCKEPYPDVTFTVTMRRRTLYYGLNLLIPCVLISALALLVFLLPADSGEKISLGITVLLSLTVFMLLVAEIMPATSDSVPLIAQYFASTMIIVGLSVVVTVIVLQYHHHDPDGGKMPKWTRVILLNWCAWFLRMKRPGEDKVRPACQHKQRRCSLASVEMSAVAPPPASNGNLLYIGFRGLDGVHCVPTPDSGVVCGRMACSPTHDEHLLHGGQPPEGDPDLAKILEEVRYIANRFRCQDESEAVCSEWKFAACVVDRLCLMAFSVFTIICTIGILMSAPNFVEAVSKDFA

As a reminder, the IC50 is the concentration at which inhibition is half-maximal. With `COc1ccc2cc1Oc1cc3c(cc1O)CCN[C@H]3Cc1ccc(cc1)Oc1c(O)c(OC)cc3c1[C@@H](C2)[N+](C)(C)CC3` [BBIQA2], the half-maximal inhibitory concentration (IC50) stood at 7.63 µM in assay [1], 8.75 µM in assay [2] and 5.52 µM in assay [3]. Besides, the “nH (Hill slope)” value is -1.16 ± 0.11 in assay [1], -0.69 ± 0.05 in assay [2] ([125I]-αBgt binding) and -0.82 ± 0.05 in assay [3]. For the same compound, the “fold less potent than d-TC” value in assay [2] (ratio of IC50 values, [125I]-αBgt binding) is 22 fold.
In assay [2], `COc1cc2c3c(c1O)Oc1ccc(cc1)C[C@@H]1NCCc4cc(OC)c(O)c(c41)-c1cc(ccc1O)C[C@H]3NCC2` registered a half-inhibitory concentration (IC50) of 17 µM. Also, the “nH (Hill slope)” value in assay [2] ([125I]-αBgt binding) is -1.05 ± 0.02.
On to `COc1cc2c(cc1O)[C@@H](Cc1ccc(O)c(Oc3cc4c(cc3OC)CCN[C@H]4Cc3ccc(O)cc3)c1)NCC2` [BBIQA1], for which the IC50 in assay [1] came out at 3.8 µM; in assay [2], 26.3 µM; in assay [3], 162 µM. The “nH (Hill slope)” value in assay [1] is recorded as -1.39 ± 0.09; in assay [2] ([125I]-αBgt binding) it was -1.13 ± 0.02; in assay [3] it was -1.19 ± 0.10.
Regarding `COc1cc2c3cc1Oc1cc(ccc1O)C[C@@H]1c4c(cc(OC)c(O)c4Oc4ccc(cc4)C[C@@H]3N(C)CC2)CC[N+]1(C)C` [d-TC, d-tubocurarine, reference compound], the entries for the “nH (Hill slope)” value in assay [2] ([125I]-αBgt binding) and in assay [3] were -1.28 ± 0.11 and -1.02 ± 0.05, respectively. In addition, the IC50 in assay [3] turned out to be 7.77 µM.

These data come from paper PMC6319706 (PLoS ONE, 2019).
